Results as given in paper PMC2885667.

Tests used:
[1] = biological target: PilG (recombinant) (Neisseria meningitidis) (UniProt Q7DDR1); experiment: South-western (solid-phase overlay); conditions: South-western: 0.25% gelatin, 0.5% BSA, 0.2% Triton X-100, 10 mM Tris/HCl, 5 mM beta-mercaptoethanol, 100 mM NaCl, pH 7.5, ~400 pmol biotinylated DNA, recombinant protein, residues 1-410
[2] = biological target: PilG (native, inner membrane fraction) (Neisseria meningitidis H44/76) (UniProt Q7DDR1); experiment: South-western (solid-phase overlay); conditions: South-western: 0.25% gelatin, 0.5% BSA, 0.2% Triton X-100, 10 mM Tris/HCl, 5 mM beta-mercaptoethanol, 100 mM NaCl, pH 7.5; ~400 pmol biotinylated DNA; protein in an extract; single-stranded DNA

“CAACAACAACAACAGGCCTGTCATCCAAACTGACAGGCCAACAACAACAACA [T3]”: binds ([1]; single-stranded DNA).
“CAACAACAACAACAGCCGTCTGAACCAAATTCAGACGGCAACAACAACAACA (double strand) [T1T2]”: binds [1].
“CAACAACAACAACAGGCCTGTCATCCAAACTGACAGGCCAACAACAACAACA / TGTTGTTGTTGTTGGCCTGTCATTTTGGATGACAGGCCTGTTGTTGTTGTTG [T3T4]”: binds [1].
“AACAACAACAAATGCCGTCTGAACCAACATGCCGTCTGAAAACAACAACAAC (double strand) [HH7,HH8]”: binds [1].
“CAACAACAACAACAGCCGTCTGAACCAAATTCAGACGGCAACAACAACAACA [T1]”: binds [2]; binds ([1]; single-stranded DNA).
“GTTGTTGTTGTTTTCAGACGGCATGTTGGTTCAGACGGCATTTGTTGTTGTT [HH8]”: binds ([1]; single-stranded DNA).

Construct, isoform or probe ends are uncertain for at least one entry. For some of these results: Results from cells or extracts need not show a direct contact. For some of these results: At least one verdict was read from the data and is not stated in words by the source.
